Data as given in patent US20190100761A1, “COMPOSITIONS AND METHODS FOR ENHANCED GENE EXPRESSION AND VIRAL REPLICATION” (priority 2016, published 2019).

Assays:
HIV-1 [1] = type: cell-based; details: for positive effect on p55 Gag expression / increase in HIV-1 p24 capsid expression: overexpression in 293T cells; for positive effect on p55 Gag expression: 24 hpi; for increase in HIV-1 p24 capsid expression: 48 hpi
IAV strain PR8 = type: cell-based, influenza A virus
HIV-1 [2] = type: cell-based; details: overexpression in 293T cells, 48 hpi
HIV-1 NL4-3 = type: cell-based

Substance	effect on viral gene expression (HIV-1 [1])	positive effect on p55 Gag expression (HIV-1 [1])	increase in HIV-1 p24 capsid expression (HIV-1 [1])	expression of the viral NS1 and M2 proteins (IAV strain PR8)	increase in infectious IAV (plaque assay on MDCK cells) (IAV strain PR8)	enhancement of HIV-1 gRNA expression (HIV-1 [2])	replication of HIV-1 (p24 ELISA) (HIV-1 NL4-3; CEM-SS Y2-OE subclone overexpressing YTHDF2 ~2-fold vs control CEM-SS)	HIV-1 Gag and Nef expression (HIV-1 NL4-3; CEM-SS Y2-OE subclone, Western at 72 hpi vs control CEM-SS)
YTHDF1: human cytoplasmic m^6A reader protein YTH-domain containing family 1, SEQ ID NO: 4, overexpressed in cells	more minor positive effect							
YTHDF2: human cytoplasmic m^6A reader protein, SEQ ID NO: 5, overexpressed in cells		~6 fold	~4 fold	substantially higher level	~10 fold	~6 fold	significant enhancement	substantially higher level
YTHDF3: human cytoplasmic m^6A reader protein, SEQ ID NO: 6, overexpressed in cells		~5 fold	~4 fold			~6 fold		
